Measured values reported in publication PMC7156367, “Cell surface processing of the P1 adhesin of Mycoplasma pneumoniae identifies novel domains that bind host molecules” (Scientific Reports, 2020).

System: cytokeratin 8
Assay: Affinity chromatography of A549 lysate on P1-15, cytokeratin 8
Format: binding, human
Settings: biotinylated P1-15 on avidin agarose, native A549 cell lysate, 16 h at 4 °C, LC-MS/MS
Experimental: The C-terminal sequence of P1 (P1-15) was synthesised with an N-terminal biotin tag by Chempeptide Limited (China). Affinity chromatography was performed similar to the section above. In brief, 1 mg of the peptide was added to Avidin Agarose beads for 16 h at 4 °C. The beads were washed four times (5 ml per wash) with PBS before being incubated with native A549 cell lysates (harvested in 1% w/v C7BzO in PBS) for 16 h at 4 °C. Non-binding proteins were washed from the column with four washes (5 ml per wash) of PBS and protein complexes with an affinity to the peptide were eluted from the column with 7 M urea, 2 M thiourea, 40 mM Tris-HCl, and 1% (w/v) C7BzO (4 times of 2 ml). Eluents were concentrated with a Macrosep® 3 kDa cutoff centrifugal device (Pall), precipitated with acetone, and separated by 1D-SDS PAGE. The whole lane was divided into sections, in-gel digested with trypsin, and analysed by LC-MS/MS as described above.

PGAPKPPVQPPKKPA [P1-15, C-terminal 15 amino acids of P1, synthesised chemically, N-terminal biotin tag]
Mascot score, cytokeratin 8 (first value) (first of two values (slice 1 and 2)): 2737
Mascot score, cytokeratin 8 (second value) (second of two values (slice 1 and 2)): 1486
